Measured values from several laboratories, pooled; numbers as filed in NIAID ChemDB.

All rows: host cell toxicity; cells: HEP-2; read-out: CC50

Rows are shuffled and stem from different studies.

SMILES,read by,value
CSc1nsc(-c2ccccc2)c1C#N,-,20 µg/mL
CN(C)c1ccc(C(=O)NC2N=C(c3ccccc3)c3ccccc3NC2=O)cn1,-,6.9 µM
C/C=C1\[C@H](OC2O[C@H](CO)[C@@H](O)[C@H](O)[C@H]2O)OC=C(C(=O)OC)[C@H]1CC(=O)OCC1O[C@H](OCCc2ccc(O)c(O)c2)[C@@H](O)[C@H](O)[C@H]1O,-,145.8 µM
CO[C@H]1C=CC2=CC(=O)N3CCc4cc5c(cc4[C@]23C1)OCO5,MTT,18.5 µg/mL
N#Cc1c(SCCCBr)nsc1-c1ccccc1,-,25 µg/mL
CSc1ccccc1C(=O)NC1N=C(c2ccccc2)c2ccccc2NC1=O,-,9.4 µM
CCOC(=O)CSc1nsc(-c2ccccc2)c1C#N,-,200 µg/mL
O=C(CC(O)c1ccccc1)NC1N=C(c2ccccc2)c2ccccc2NC1=O,-,1.9 µM
CC(C)CCn1c(Cn2c(=O)n(CC(=N)N=[N+]=[N-])c3ccccc32)nc2ccccc21,-,>210 µM
Cc1cccc(C)c1NC(=O)NC1N=C(c2ccccc2)c2ccccc2NC1=O,-,6 µM
C/C=C1\[C@H](OC2O[C@H](CO)[C@@H](O)[C@H](O)[C@H]2O)OC=C(C(=O)O)[C@H]1CC(=O)OCCc1ccc(O)cc1,-,375 µM
CC(C)CCn1c(Cn2c(=O)n(Cc3ccc(P(=O)(O)O)cc3)c3ccccc32)nc2ccccc21,-,81 µM
CSc1nsc(-c2ccccc2)c1C(=O)O,-,500 µg/mL
C/C=C1\[C@H](OC2O[C@H](CO)[C@@H](O)[C@H](O)[C@H]2O)OC=C(C(=O)OC)[C@H]1CC(=O)OC,-,125 µM
N#Cc1c(SCCCCBr)nsc1-c1ccccc1,-,25 µg/mL
O=C(Nc1cccc(C(F)(F)F)c1)NC1N=C(c2ccccc2)c2ccccc2NC1=O,-,9.7 µM
CC(C)CCn1c(Cn2c(=O)n(CCCCCN=[N+]=[N-])c3ccccc32)nc2ccccc21,-,90 µM
COC(=O)c1c(SC)nsc1-c1ccccc1,-,100 µg/mL
CCCOc1ccccc1C(=O)NC1N=C(c2ccccc2)c2ccccc2NC1=O,-,8.3 µM
CCCSc1nsc(-c2ccccc2)c1C(=O)OC,-,50 µg/mL
O=C(NC1N=C(c2ccccc2)c2ccc(Cl)cc2NC1=O)C1CCCCC1,-,5 µM
CSc1nsc(-c2ccccc2)c1C(N)=O,-,250 µg/mL
COc1ccc(-c2coc3cc(O)ccc3c2=O)cc1O,-,2.2 µg/mL
CN(C)CCn1c(Cn2c(=O)n(CCN(C)C)c3ccccc32)nc2ccccc21,-,10 µM
CO[C@H]1C=CC2=CCN3CCc4cc5c(cc4[C@]23C1)OCO5,MTT,15.9 µg/mL

A second listing of 2 rows from above:

SMILES,read by,value
CC(C)CCn1c(Cn2c(=O)n(CC(=N)N=[N+]=[N-])c3ccccc32)nc2ccccc21,-,>210 µM
CO[C@H]1C=CC2=CC(=O)N3CCc4cc5c(cc4[C@]23C1)OCO5,MTT,18.5 µg/mL

CCn: concentration that lowers growth or viability of the cells by n%. An empty or dashed field is not shown.